# Library screen at single concentrations

The filed quantity is “Percent Effect” (%). The controls that fix the scale are not given in the record; negative values are as filed. The entries come from a sample that favours strong results. A dash means the value is not listed here; it may have been measured.

Mtb cholesterol medium: 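Whole-cell growth test on Mycobacterium tuberculosis, read after 4 days in a medium based on cholesterol and the lipid DPPC; the read-out is not stated. Tested at 500 µM. Higher reads as more growth inhibition (inferred: compounds with an IC50 in retests scored well above the rest). About 18,000 compounds were tested under these conditions; 5% (about 900) showed 50% or more at least once.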
Mtb glucose medium: 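Phenotypic screen: M. tuberculosis growth, glucose 7H9 medium, 3 days; the read-out is not stated. Compounds at 500 µM. Direction is inferred from retests: higher values go with more growth inhibition. Of about 18,000 compounds tested this way, about 1,400 (7.9%) reached 50% or more in at least one test.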

SMILES,Mtb cholesterol medium,Mtb glucose medium
CC(C)c1ccnc(N2CCOC(CCN)C2)n1 (stereo not shown),-,34.36
CC(C)CC(CCO)CNC(=O)N1CCSCC1 (stereo not shown),22.73,-
OCC(O)CNc1ncc(-c2ccccc2)s1 (stereo not shown),17.17,31.44
COCC(=O)NC1CCc2ccccc21 (stereo not shown),-,53.68
CN(C(=O)Cc1ccc(Cl)cc1Cl)C1CCS(=O)(=O)C1 (stereo not shown),-,24.18
O=C(CCCc1cn[nH]c1)NCC[C@@H]1CCCN1,-3.956,-
O=c1c2ccccc2ncn1CCN1CCOCC1,-,7.31
O=S(=O)(NCCNCc1sccc1Cl)c1cccnc1,-,-0.6465
Cc1occc1SCC(=O)NC1CCOCC1,-,-4.667
COC(CN)C1CCCC1 (stereo not shown),-,-2.901
CCNCc1ccc2c(c1)OCO2,31.3,62.73
CNC(=O)Nc1ccc(OC)c(OCCOC)c1,57.14,57
CC(=O)c1c(SCC(=O)NC2CC2)nc(=O)[nH]c1C,-,5.059
Cn1ccnc1-c1nnc(NCc2ncc(Cl)n2C)o1,-6.579,-
CC(=O)N(Cc1noc(C2CC2)n1)C1CCNC1 (stereo not shown),0.8846,7.461
CNC(=O)NCCc1c[nH]c2ncccc12,-8.572,-
CCS(=O)(=O)N1CCC(C(=O)NC(C)COC)CC1 (stereo not shown),-,1.219
CC(C)NC(=O)CNC(=O)CSc1cccs1,-34.57,-11.27
CC(NC(=O)CCNC(=O)c1ccco1)c1cccs1 (stereo not shown),-,52.24
NC(=O)CCCNC(=O)C1(c2ccccc2)CCC1,8.269,-
Cc1ccc(C(=O)NCC(c2ccco2)N(C)C)cn1 (stereo not shown),-,22.73
CN(C)c1cc(CNC(=O)NC2CC2)ccn1,-,0.8495
CC(CC#N)NS(=O)(=O)Cc1ccc(F)cc1 (stereo not shown),-,4.837
O=C1CCCN1Cc1cccc(C(=O)N2CCC2)c1,-,-8.203
Cc1ccoc1C(=O)N1CCC2(CCC2O)CC1 (stereo not shown),-,14.52
CCN(CC)CC(=O)NCCS(=O)(=O)C(C)(C)C,18.41,-
FC(F)COCCn1nnc(-c2ccsc2)n1,89.64,80.77
Cc1cc(Br)oc1C(=O)N1CCCN(C)CC1,36.42,50.75
NC(CO)Cc1ccncc1 (stereo not shown),-18.77,-
Nc1cnccc1NC(=O)c1ccccc1,-29.78,-
N[C@@H]1CCc2ccccc21,10.8,23.47
O=S(=O)(NCCNc1ccccn1)c1cccnc1,-45.4,3.618
Cc1cc(N2CCCN(CC3CCNC3)CC2)ccn1 (stereo not shown),-,-5.679
N#Cc1cccc(NC(=O)NCCn2ccnc2)c1,-,14.43
O=C(Nc1nnc(-c2cccs2)s1)NC1CCCNC1 (stereo not shown),56.09,63.52
CC(=O)c1ccc(-n2ccnn2)cc1,-2.613,-
CC(CN)CC(F)(F)F (stereo not shown),-,7.112
CSc1ncccc1C(=O)NCCN1CCC(C)CC1,-,-3.774
O=C(Cc1ccc(F)cc1)NCCCn1cccn1,-,33.75
Cc1n[nH]c(C)c1CN(C)Cc1ccncc1,-9.993,-
CC(C)Cc1nc(C#N)c(NCc2ccncc2)o1,-,-8.804
CSCc1cc(F)ccc1CNC(=O)c1cn[nH]c1C,-,57.98
CN(C)c1cc([C@H]2C[C@@H](O)C2)nc(N)n1,-,2.259
CCOCCOC1CNC1,-,6.7
CC1Cc2ccccc2N1CC(N)=O (stereo not shown),7.969,19.7
CCC1C(=O)NCCN1CCCOC (stereo not shown),-,-10.4
NCCc1ccc2[nH]ccc2c1,31.43,13.01
CN1CCC(=O)CC1c1ccccc1 (stereo not shown),-,-76.49
CCCNC(=O)c1ccc2snnc2c1,47.93,59.26
Cc1nn(C)c(Cl)c1C(=O)N1CCC(C(N)=O)CC1,6.693,-
CC(C)c1cc(C(=O)NC(C#N)C2CC2)n(C)n1 (stereo not shown),-,33.96
O=C(NCCc1ccccn1)Nc1cn[nH]c1,11.93,9.512
CCCc1ncc(C(=O)NCC(C)S(N)(=O)=O)s1 (stereo not shown),15.45,-
Cc1cccc(NC(=O)CN2CCN(C)CC2)c1C,-,12.29
CN1CCCN(C(=O)COc2cccc(Cl)c2)CC1,-,52.4
COc1cccc(CNc2nc(C)no2)c1,43.63,58.31
CCCN(C)C(=O)Cn1ccc(=O)[nH]c1=O,-,12.51
CN(C)C[C@@H]1CN(C(=O)c2ccccc2Cl)C[C@@H]1CO,-10.79,-
CN(C)CCOC1CCNC1 (stereo not shown),5.36,-

4 of the entries, repeated:

For CCCNC(=O)c1ccc2snnc2c1 the result was Mtb cholesterol medium: 47.93%; Mtb glucose medium: 59.26%.
For CC(CN)CC(F)(F)F (stereo not shown) the result was Mtb glucose medium: 7.112%.
For CSCc1cc(F)ccc1CNC(=O)c1cn[nH]c1C the result was Mtb glucose medium: 57.98%.
For CN1CCC(=O)CC1c1ccccc1 (stereo not shown) the result was Mtb glucose medium: -76.49%.

The values are deposited in ChEMBL (CHEMBL3988442, “University of Dundee, Small-Polar-MMV Screening Library” (2021)).